Test results taken from paper PMC3111433.

Legend:
[1] = tested on: C[C@](O)(CO)[C@H](O)COP(=O)(O)O; test: purified protein; settings: pH 8.0; 37.0 °C
[2] = tested on: Nc1ccn([C@@H]2O[C@H](COP(=O)(O)OP(=O)(O)OP(=O)(O)O)[C@@H](O)[C@H]2O)c(=O)n1; test: purified protein; settings: pH 8.0; 37.0 °C

“F. tularensis MEP cytidylyltransferase (IspD) (Francisella tularensis subsp. holarctica LVS)” showed a Km [1] of 177.9 ± 35.2 µM and a Km [2] of 73.0 ± 14.9 µM.
